A mixed list of measured activities; the numbers were collected in NIAID ChemDB.

Shared fields: tests in culture; organism: HIV-1

ECn is the concentration giving n% inhibition of infection, replication or growth. An empty or dashed field is not shown. Lines come from different laboratories, so protocols vary.

structure	method	cell line	read-out	strain	changes	result
Cc1cn([C@H]2C[C@H](F)[C@@H](CO)O2)c(=S)[nH]c1=O	syncytia	MT-2	EC50			0.5 µM
Nc1ccn([C@H]2CC[C@@H](CO)O2)c(=O)n1	p24	PBMC	EC50	IIIB		0.09 µM
CC(C)C[C@H](NC(=O)[C@H](Cc1ccccc1)NC(=O)CNC(=O)CNC(=O)[C@@H](N)Cc1ccc(O[C@@H]2O[C@H](CO)[C@@H](O)[C@H](O)[C@H]2O)cc1)C(=O)O	syncytia / RT activity	PBL	EC50			>100 µM
CC(=O)Oc1ccc2cc(Br)ccc2c1Cc1c[nH]c2ccc(Br)cc12	MTT	MT-4	EC50			7 µM
CC(C)(C)OC(=O)N1CCCN(C(=O)OC(C)(C)C)CCN(C(=O)OC(C)(C)C)CCCN(CCCCC(=O)Nc2ccn([C@H]3CC[C@@H](COC(=O)CCCCN4CCCN(C(=O)OC(C)(C)C)CCN(C(=O)OC(C)(C)C)CCCN(C(=O)OC(C)(C)C)CC4)O3)c(=O)n2)CC1	syncytia	MT-4	EC50			1 µM
Cc1cn([C@H]2C[C@H](N=[N+]=[N-])[C@@H](CO)O2)c(=O)[nH]c1=O	syncytia	PBMC	EC50			0.1 µM
CC(C)c1nc(COC(N)=O)n(Cc2ccncc2)c1S(=O)c1cc(Cl)cc(Cl)c1	cytopathic effect / MTT	MT-4	EC50			0.5 µg/mL
COc1cc(O)cc2cc3c(c(O)c12)C(=O)CC(C)(O)O3	XTT / absorbance	TZM-bl	EC50	SF162		>50 µM
CCCCC/C=C\C/C=C\C/C=C\C/C=C\CCCC(=O)OC(CO)CO	luciferase	Jurkat cells	EC50	NL4-3-Luc VSV pseudotyped		>10 µM
CC(C)CN(C[C@@H](O)[C@H](Cc1ccccc1)NC(=O)[C@H](CC(N)=O)NC(=O)c1ccc2ccccc2n1)C(=O)NC(C)(C)C	RT activity	CEM	EC50	LAV-1		<1.18 µM
Cc1cn([C@H]2C[C@H](N=[N+]=[N-])[C@@H](CO)O2)c(=O)[nH]c1=O	p24 / ELISA	PBMC	EC50	93BR021		0.0185 µM
CCCCC/C=C\C/C=C\C/C=C\C/C=C\CCCC(=O)NCCc1ccc(O)c(O)c1	luciferase	PBMC	EC50	NL4-3-Luc VSV pseudotyped		<1 µM
CC(C)C[C@H](NC(=O)[C@H](Cc1ccccc1)NC(=O)CNC(=O)CNC(=O)[C@@H](N)Cc1ccc(O)cc1)C(=O)N[C@@H]1[C@@H](O)[C@H](O)[C@@H](CO)O[C@H]1O	syncytia / RT activity	PBL	EC50			>140 µM
CN(C)c1cncc2sc(C(N)=O)c(N)c12	p24 / ELISA	U1	EC50			0.45 µM
Nc1ccn([C@@]23C[C@@H]2[C@@H](CO)CO3)c(=O)n1	luciferase	HOS-13	EC50			23 µM
CC[C@H]1OC(=O)[C@H](C)[C@@H](O[C@H]2C[C@@](C)(OC)[C@@H](O)[C@H](C)O2)[C@H](C)[C@@H](O[C@@H]2O[C@H](C)C[C@H](N(C)C)[C@H]2O)[C@](C)(O)C[C@@H](C)/C(=N\OCOCCOC)[C@H](C)[C@@H](O)[C@]1(C)O	RT activity	PBMC	EC50	LAV		<1000 µM
O=C(O)/C(O)=C(\Cc1ccccc1)c1cc(CCc2ccccc2)ncn1	cytopathic effect / MTT	MT-4	EC50	IIIB		>55 µM
NC(=O)c1cc2c(-c3ccc4c(c3)CCO4)cncc2s1	p24 / ELISA	PBMC	EC50	92UG005		0.0708 µM
Oc1cc2c(cc1O)C1Cc3ccc(O)c(O)c3CN1CC2	p24 / ELISA	H9	EC50	IIIB		>2.5 µg/mL
CC1=C(C(=O)N2CCC(C)(N3CCN(C(c4cccc(F)c4)C4CCN(S(=O)(=O)C5CC5)CC4)[C@@H](C)C3)CC2)C(C)[NH+]([O-])C=N1	p24	PBMC	EC50	M-tropic		0.008 µM
Nc1ncnc2c1ncn2/C=C1/C[C@H]1CO		CEM + CEM-SS	EC50			11 µM
Cc1cn([C@H]2C[C@H](N=[N+]=[N-])[C@@H](CO)O2)c(=O)[nH]c1=O	MTT	MT-4	EC50			0.01 µM
CC(C)=CCC/C(C)=C/C[N@@+]12CCc3cc(O)c(O)cc3[C@H]1Cc1cc(O)c(O)cc1C2	p24 / ELISA	H9	EC50	IIIB		>25 µg/mL
Cc1cccc(C)c1CNC(=O)[C@H]1N(C(=O)[C@@H](O)C[C@@H](Cc2ccccc2)C(=O)N[C@H]2c3ccccc3C[C@H]2O)CSC1(C)C	p24	MT-4	EC50			<0.031 µM
Cc1cn([C@H]2CC[C@@H](CO)O2)c(=O)[nH]c1=O	cytopathic effect	ATH8	EC50	IIIB		160 µM
COC(=O)[C@H](Cc1ccccc1)NP(=O)(O)OC[C@H]1C[C@@H](n2cnc3c(N)nccc32)[C@H](O)[C@@H]1O		PBMC	EC50	LAI		0.4 µM
CO[C@H]1CCCC[C@@H](c2ccccc2)OC(=O)C(C)[C@@]2(O)OC([C@@H](C)[C@H](O)[C@H]2OC)[C@@H](C)/C=C/[C@H]1OC	luciferase	TZM-bl	EC50	LAI		0.15 µM
O=CC1CSCN1C(=O)C1CCCN1C(=O)OCc1ccccc1	syncytia	CEM/MOLT-4	EC50	LAV		>100 µM
C[C@@H]1[C@H](O)[C@@H](CO)O[C@H]1n1cnc2c(=O)[nH]c(N)nc21	MTT	MT-4	EC50			>100 µM
Cc1cn([C@H]2C[C@H](N=[N+]=[N-])[C@@H](CO)O2)c(=O)[nH]c1=O	luciferase	ACH2 + TZM-bl	EC90	SF162		0.00805 µM
COc1c(C)c2c(c(O)c1C/C=C(\C)CCC(=O)O)C(=O)OC2	MTT	MT-4	EC50			>0.2 µM
Cc1cn([C@@H]2C=C[C@H](CO)O2)c(=O)[nH]c1=O	RT activity	PBMC	EC50	LAV		>100 µM
COc1ccccc1N1CCN(C(=O)c2cc3cc4c(cc3[nH]2)OCO4)CC1	syncytia	HT4lacZ-1/IIIB + HT4 LacZ-1	EC50	IIIB		11.76 µM
CC(C)(C)OC(=O)N1CCCN(C(=O)OC(C)(C)C)CCN(C(=O)OC(C)(C)C)CCCN(C(=O)CCCC(=O)OC[C@@H]2CC[C@H](n3ccc(N)nc3=O)O2)CC1	syncytia	MT-4	EC50			5 µM
Cc1noc(C2CCCN(c3cncc4sc(C(N)=O)c(N)c34)C2)n1	p24 / ELISA	U1	EC50			1.087 µM
CC(C)=CCN1Cc2cc(Cl)cc3[nH]c(=S)n(c23)C[C@@H]1C		MT-4	EC95		RT-D67N K70R T215Y K219Q A98G	>3 µM
COc1cc([C@H](Cc2ccccc2)n2cc(C(N)=O)c(=O)cc2Cc2ccccc2)oc(=O)c1	XTT / absorbance	TZM-bl	EC50	SF162		>50 µM
Cc1nnc(C(=O)NC(C)(C)c2nc(C(=O)NCc3ccc(F)cc3)c(O)c(=O)n2C)o1	luciferase	ACH2 + TZM-bl	EC90	SF162		0.00127 µM
CC[C@H](NC(=O)COc1cccc(N(C)C)c1)C(=O)N[C@@H](Cc1ccccc1)[C@H](O)C(=O)N1CSC(C)(C)[C@H]1C(=O)NC(C)(C)C	cytopathic effect / XTT	CEM + CEM-SS	EC50	IIIB		0.024 µM
CCn1nc(Cc2ccccc2)cc1C1CCN(C[C@H]2CN([C@@H](C(=O)O)C3CCCCC3)C[C@@H]2c2cccc(F)c2)CC1	β-galactosidase	HeLa	EC50	BaL		<0.0004 µM
Fc1cccc(F)c1C1SCc2nc3ccccc3n21	cytopathic effect / XTT	CEM + CEM-SS	EC50	KELL		2.33 µM
Cc1ccnc2c1NC(=O)c1cccnc1N2C1CC1	p24	PBMC	EC90	Subtype B isolate		0.1 µM
CCC(C)[C@H]1C(=O)O[C@H](C(C)C)C(=O)N(C)[C@@H](C(C)C)C(=O)O[C@H](C(C)C)C(=O)N(C)[C@@H](C(C)C)C(=O)O[C@H](C(C)C)C(=O)N1C	cytopathic effect / XTT	CEM + CEM-SS	EC50			0.01 µg/mL
Cc1cn([C@H]2C[C@H](F)[C@@H](CP(=O)(O)O)O2)c(=S)[nH]c1=O	syncytia	CEM	EC50			0.5 µM
Nc1ncnc2c1ncn2/C=C1/C[C@@H]1CO		CEM + CEM-SS	EC50			>100 µM
COc1ccc2ccc(OC(C)=O)c(Cc3c[nH]c4ccc(Br)cc34)c2c1	MTT	MT-4	EC50			8 µM
CSC[C@H](NC(=O)COc1cccc2cnccc12)C(=O)N[C@@H](Cc1ccccc1)[C@H](O)C(=O)N1CSC(C)(C)[C@H]1C(=O)NC(C)(C)C	cytopathic effect / XTT	CEM + CEM-SS	EC50	IIIB		0.0057 µM
Cc1cn([C@H]2C=C[C@@H](CO)O2)c(=O)[nH]c1=O	syncytia	MT-4	EC50			1 µM
O=C(C1CCCN1C(=O)OCc1ccccc1)N1CCSC1	syncytia	CEM/MOLT-4	EC50	LAV		>100 µM
CCSc1nc(=O)n([C@H]2C=C[C@@H](CO)O2)cc1C		C8166	EC50			>50 µM
CC1c2cc(O)c(O)cc2CC[N+]1(C)C	p24 / ELISA	H9	EC50	IIIB		>25 µg/mL
CC(C)(C)NC(=O)[C@H]1N(C(=O)[C@@H](O)[C@H](Cc2ccccc2)NC(=O)[C@H](CC(N)=O)NC(=O)COc2cccc(Nc3ccccc3)c2)CSC1(C)C	cytopathic effect / XTT	CEM + CEM-SS	EC50	IIIB		0.05 µM
Nc1ncnc2c1ncn2[C@@H]1CC[C@H](CO)O1	RT activity	PBMC	EC50	LAV		8.2 µM
CC(C)=CCC/C(C)=C/CN1CCc2cc(O)c(O)cc2[C@H]1C	p24 / ELISA	H9	EC50	IIIB		>2.5 µg/mL
CC[C@H](NC(=O)COc1cccc2cnccc12)C(=O)N[C@@H](Cc1ccccc1)[C@H](O)C(=O)N1CSC[C@H]1C(=O)NC(C)(C)C	cytopathic effect / XTT	CEM + CEM-SS	EC50	IIIB		0.102 µM
CCOc1ccccc1N1CCN(C(=O)c2cc3ccccc3[nH]2)CC1	syncytia	HT4lacZ-1/IIIB + HT4 LacZ-1	EC50	IIIB		4.85 µM
COc1ccc2c(Cc3c(-c4ccccc4)[nH]c4ccccc34)c(OC(C)=O)ccc2c1	MTT	MT-4	EC50			>19 µM
N#Cc1ccccc1-c1cncc2sc(C(N)=O)cc12	p24 / ELISA	U1	EC50			0.946 µM
CC1(C)CC[C@]2(C(=O)O)CC[C@]3(C)C(=CC[C@@H]4[C@@]5(C)CC[C@H](O[C@@H]6OC[C@@H](O)[C@H](OC7O[C@H](CO)[C@H](O)[C@H](O)[C@H]7O)[C@H]6O)C(C)(C)[C@@H]5CC[C@]43C)[C@@H]2C1	p24 / ELISA	PBMC	EC50	BaL		1.25 µg/mL
CC(=O)O[C@@H]1O[C@H](COC(=O)[C@H](CC(C)C)NC(=O)[C@H](Cc2ccccc2)NC(=O)CNC(=O)CNC(=O)[C@@H](N)Cc2ccc(O)cc2)[C@@H](OC(C)=O)[C@H](OC(C)=O)[C@H]1OC(C)=O	syncytia / RT activity	PBL	EC50			>100 µM
CCOC(=O)C(C)OP(=O)(CO[C@@H]1C=C(F)[C@H](n2cnc3c(N)ncnc32)O1)Oc1ccccc1	luminescence	MT-2	EC50	IIIB		>2 µM
CCOc1ccccc1N1CCN(C(=O)c2cc3cc4c(cc3[nH]2)OCO4)CC1	syncytia	HT4lacZ-1/IIIB + HT4 LacZ-1	EC50	IIIB		1.62 µM
CC(=O)N1CCN(c2cncc3sc(C(N)=O)c(N)c23)CC1	p24 / ELISA	Jurkat cells	EC50	NL4-3		0.634 µM
CC(C)C[C@H](NC(=O)[C@H](Cc1ccccc1)NC(=O)CNC(=O)CNC(=O)[C@@H](N)Cc1ccc(O)cc1)C(=O)OC[C@@H](O)[C@@H](O)[C@H](O)[C@@H](O)C=O	syncytia / RT activity	PBL	EC50			>100 µM
CC[C@H](C)[C@H](NC(=O)[C@H](OCc1ccccc1)[C@H](O)[C@@H](O)[C@@H](OCc1ccccc1)C(=O)N[C@H](C(=O)NC)[C@@H](C)CC)C(=O)NC	cytopathic effect / XTT	MT-4	EC50			0.06 µg/mL
NC(=O)c1cc2c(-c3ccc(Oc4ccccc4)cc3)cncc2s1	p24 / ELISA	U1	EC50			0.077 µM
Nc1ccn([C@@H]2CS[C@H](CO)O2)c(=O)n1	p24	PBMC	EC90	Subtype B isolate		0.05 µM
CC(C)(C)OC(=O)N1CCCN(C(=O)OC(C)(C)C)CCN(C(=O)OC(C)(C)C)CCCN(C(=O)CCCC(=O)OC[C@@H]2CC[C@H](n3cnc4c(=O)[nH]cnc43)O2)CC1	syncytia	MT-4	EC50			>50 µM

For reference, 4 entries again:

| structure | method | cell line | read-out | strain | changes | result |
|---|---|---|---|---|---|---|
| Fc1cccc(F)c1C1SCc2nc3ccccc3n21 | cytopathic effect / XTT | CEM + CEM-SS | EC50 | KELL |  | 2.33 µM |
| CC(=O)O[C@@H]1O[C@H](COC(=O)[C@H](CC(C)C)NC(=O)[C@H](Cc2ccccc2)NC(=O)CNC(=O)CNC(=O)[C@@H](N)Cc2ccc(O)cc2)[C@@H](OC(C)=O)[C@H](OC(C)=O)[C@H]1OC(C)=O | syncytia / RT activity | PBL | EC50 |  |  | >100 µM |
| COc1ccc2ccc(OC(C)=O)c(Cc3c[nH]c4ccc(Br)cc34)c2c1 | MTT | MT-4 | EC50 |  |  | 8 µM |
| Cc1cn([C@H]2C[C@H](N=[N+]=[N-])[C@@H](CO)O2)c(=O)[nH]c1=O | MTT | MT-4 | EC50 |  |  | 0.01 µM |